From ChEMBL document CHEMBL1135602 (J Med Chem, 2002)

The chains behind the UniProt entries cited, without tags or fusion partners. Where a name states a change or a piece, a line headed by the entry shows the natural chain unless it says otherwise.
UniProt P13922: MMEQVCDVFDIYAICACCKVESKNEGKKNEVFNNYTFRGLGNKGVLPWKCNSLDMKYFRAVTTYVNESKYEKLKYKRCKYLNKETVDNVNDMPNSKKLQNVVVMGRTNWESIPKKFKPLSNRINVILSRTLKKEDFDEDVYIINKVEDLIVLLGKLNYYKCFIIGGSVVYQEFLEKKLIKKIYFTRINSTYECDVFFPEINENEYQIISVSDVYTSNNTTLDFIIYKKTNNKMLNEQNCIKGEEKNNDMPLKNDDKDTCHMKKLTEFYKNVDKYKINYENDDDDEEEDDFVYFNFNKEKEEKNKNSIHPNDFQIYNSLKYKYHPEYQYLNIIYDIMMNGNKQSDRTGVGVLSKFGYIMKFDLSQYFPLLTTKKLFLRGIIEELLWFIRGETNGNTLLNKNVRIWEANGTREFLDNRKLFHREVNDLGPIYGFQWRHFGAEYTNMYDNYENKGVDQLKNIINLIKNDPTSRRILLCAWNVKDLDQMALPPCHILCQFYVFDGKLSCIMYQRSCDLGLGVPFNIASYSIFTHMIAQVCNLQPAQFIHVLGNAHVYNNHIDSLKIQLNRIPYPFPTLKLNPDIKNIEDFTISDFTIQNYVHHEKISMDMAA

Tests used:
[1] = target: Bifunctional dihydrofolate reductase-thymidylate synthase (Plasmodium falciparum K1) (UniProt P13922); experiment: Inhibition of the S108N mutant of dihydrofolate reductase (DHFR)relative to Tmp.
[2] = target: Bifunctional dihydrofolate reductase-thymidylate synthase (Plasmodium falciparum K1) (UniProt P13922); experiment: Inhibition of the C59R+S108N mutant of dihydrofolate reductase (DHFR)relative to Tmp.

Structure (SMILES): COc1cc(Cc2cnc(N)nc2N)ccc1OCc1cc(OC)c(OC)c(OC)c1
- Relative activity [1]: 0.05
- Relative activity [2]: 0.04
